## Zika virus NS2B-NS3: effect of single substitutions on growth in cell culture

The measurements come from Ni et al. 2025 (doi:10.1038/s41467-025-63602-z).

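Mutant virus pools were grown in human Huh-7.5 cells. Deep sequencing gave the change in frequency of each mutant relative to wild type, averaged over three replicate libraries (two for positions 207-308). The study looked for pockets that tolerate few changes, as a guide for inhibitor design.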

The scanned region of Zika virus MR766 is shown below (positions 1-308): NS2B is 2-131, NS3 begins at position 132.
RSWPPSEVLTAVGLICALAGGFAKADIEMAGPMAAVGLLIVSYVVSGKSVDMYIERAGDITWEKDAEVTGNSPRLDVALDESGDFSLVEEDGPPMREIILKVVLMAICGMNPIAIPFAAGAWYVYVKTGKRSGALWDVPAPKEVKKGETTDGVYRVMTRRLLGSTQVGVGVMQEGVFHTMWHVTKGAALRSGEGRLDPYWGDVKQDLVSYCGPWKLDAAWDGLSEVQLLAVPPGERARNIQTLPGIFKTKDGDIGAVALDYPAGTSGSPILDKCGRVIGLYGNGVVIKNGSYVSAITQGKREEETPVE

The number is log2 of the effect relative to wild type; negative values mean reduced growth, higher values better tolerance. Substitutions are written as wild-type residue, site number, new residue.

change	effect (log2)
P5*	-8.01
L9F	-1.42
A25S	-2.72
E28R	-3.29
E28T	-1.87
I40V	0.70
V41Y	-5.66
S42I	-6.27
V44S	-7.12
V45S	-7.13
S46C	2.28
I54V	-1.07
E55F	-6.42
I60M	-3.22
T61G	-0.71
K64G	-2.53
D65Q	-5.99
A66E	-7.02
A66V	-2.33
T69S	-0.01
S72I	-5.41
S72Q	-5.57
L75Q	-7.35
D76N	-0.50
S82A	-2.49
S82L	-7.37
S82N	1.24
L87I	-4.76
V88*	-6.56
G92S	-3.26
V102Y	-5.83
L104G	-6.54
M105G	-6.77
A106*	-6.58
A106N	-4.94
M110A	-1.74
N111Q	-1.16
A114M	-0.95
A121T	-0.60
Y123V	-2.57
W136A	-7.09
D137N	-6.72
D137Y	-3.19
V138F	-5.47
E143A	-1.18
E143Q	-0.72
V144N	-1.77
G147E	-4.46
G147T	-3.04
D151H	-2.98
G152*	-6.89
Y154K	-5.46
M157T	-5.78
R160*	-7.17
L162T	-5.14
V167W	-6.23
V171L	-6.89
W181S	-6.45
A187V	-5.17
A188C	-2.72
W200A	-7.17
W200E	-6.58
D206R	-7.77
L207Q	-7.37
G222R	-2.52
L223D	-1.33
L223P	-5.96
V231Y	-2.57
G234C	-2.81
N239K	-5.86
P244N	-4.28
F247N	-5.69
K248*	-8.87
D251I	-5.29
G252V	-7.25
D253I	-3.46
T265Q	-2.96
I270L	-3.99
G275C	-1.52
R276H	-1.77
V277T	-5.08
G279W	-4.79
G279Y	-4.12
L280S	-6.94
Y281I	-5.18
V285*	-6.31
V285D	-4.56
V285M	-4.33
V285Q	-4.81
G290H	-5.01
S291Q	1.88
Q298G	-5.50
K300E	-5.69
R301P	-3.09
E302V	1.10
E308*	-7.41

Excerpt, the final 7 entries:

With G290H the assay gave -5.01.
With S291Q the assay gave 1.88.
With Q298G the assay gave -5.50.
With K300E the assay gave -5.69.
With R301P the assay gave -3.09.
With E302V the assay gave 1.10.
With E308* the assay gave -7.41.

The region was split into three libraries (1-103, 104-206, 207-308). The authors count -1 or higher as tolerated. Position 1 is the last residue of NS2A. Values above 0 are not proof of better growth: six high scorers were tested one by one, five grew less well than wild type and one about as well. Stop codons (*) centre on -7 and mark the level of dead virus.